Anti-infective test results gathered from many reports (values: NIAID ChemDB through PubChem).

Shared fields: growth or infection tests; species: HIV-1; cells: MT-2; endpoint: EC50

Rows are shuffled and stem from different studies. ECn is the concentration giving n% inhibition of infection, replication or growth. An empty or dashed field is not shown.

smiles	strain	mutations	read by	value
O=c1[nH]cnc2c1ncn2[C@@H]1O[C@H](CO)C[C@@H]1F	P119S(RT-P119S)	RT-P119S	p24	15 µM
O=c1[nH]cnc2c1ncn2[C@H]1CC[C@@H](CO)O1	LAI		cytopathic effect / XTT	11.8 µM
Cc1cn([C@H]2C[C@H](N=[N+]=[N-])[C@@H](CO)O2)c(=O)[nH]c1=O	Site-directed mutant	RT-K65R Y115F	cytopathic effect / XTT	0.196 µM
C[C@H](Cn1cnc2c(N)ncnc21)OCP(=O)(O)O	N119 (NNRTI-resistant RT Y181C)	RT-Y181C	p24	0.25 µM
Nc1ccn([C@H]2CC[C@@H](CO)O2)c(=O)n1	RT P119S V179D L214F	RT-P119S V179D L214F	p24	0.85 µM
CCN(c1nc(F)ccc1NC(C)(C)C)C1CCN(C(=O)c2cc3cc(NC(=O)N4CCN(C)CC4)ccc3[nH]2)CC1	IIIB	ATV-P47 atazanavir-resistant mutant	ATP	0.0047 µM
C[C@H](Cn1cnc2c(N)ncnc21)OCP(=O)(O)O	HXB2-D WT		cytopathic effect / XTT	3.6 µM
Nc1ncnc2c1ncn2[C@@H]1O[C@H](CO)C[C@@H]1F	LAI		p24	5 µM
Cc1ccc(S(=O)(=O)N(CC(C)C)C[C@@H](O)[C@H](Cc2ccccc2)NC(=O)O[C@H]2CO[C@H]3OCC[C@H]32)cc1	IIIB	R41K	p24 / ELISA	0.008 µM
Cc1cn([C@H]2C=C[C@@H](CO)O2)c(=O)[nH]c1=O	Clinical isolate	M41L/D67N/K70R/A98G/K101E/M184V/G190A/L210W/T215Y/K219E	recombinant virus assay	0.816 µM
Nc1nc2c(ncn2[C@H]2CO[C@@H](CO)O2)c(=O)[nH]1	LAI		cytopathic effect / XTT	2.2 µM
COC(=O)N[C@H](C(=O)N[C@@H](Cc1ccccc1)[C@@H](O)CN(Cc1ccc(-c2ccccn2)cc1)NC(=O)[C@@H](NC(=O)OC)C(C)(C)C)C(C)(C)C	IIIB	D437N	p24 / ELISA	0.0009 µM
CC(C)(C)NC(=O)[C@@H]1C[C@@H]2CCCC[C@@H]2CN1C[C@@H](O)[C@H](Cc1ccccc1)NC(=O)[C@H](CC(N)=O)NC(=O)c1ccc2ccccc2n1	RF			0.019 µM
Nc1nc(N)c2ncn([C@H]3CO[C@@H](CO)O3)c2n1	LAI		cytopathic effect / XTT	12.5 µM
Nc1ccn([C@H]2CC[C@@H](CO)O2)c(=O)n1	NL4-3 WT		p24	0.038 µM
Cc1cn([C@H]2C[C@H](N=[N+]=[N-])[C@@H](CO)O2)c(=O)[nH]c1=O	NL4-3		p24	0.002 µM
Cc1cn([C@H]2C=C[C@@H](CO)O2)c(=O)[nH]c1=O	NL4-3 Recombinant		cytopathic effect / XTT	4.1 µM
Cc1cn([C@H]2C[C@H](N=[N+]=[N-])[C@@H](CO)O2)c(=O)[nH]c1=O	M184V(RT-M184V)	RT-M184V	p24	0.009 µM
Nc1nc(NC2CC2)c2ncn([C@H]3C=C[C@@H](CO)C3)c2n1	RT-T69G K103N	1(T69G+K103N)	p24	0.149 µM
Nc1nc(=O)n([C@@H]2CS[C@H](CO)O2)cc1F	Clinical isolate	K103N/M184V	recombinant virus assay	>13.3 µM

The first 2 rows once more:

smiles | strain | mutations | read by | value
O=c1[nH]cnc2c1ncn2[C@@H]1O[C@H](CO)C[C@@H]1F | P119S(RT-P119S) | RT-P119S | p24 | 15 µM
O=c1[nH]cnc2c1ncn2[C@H]1CC[C@@H](CO)O1 | LAI |  | cytopathic effect / XTT | 11.8 µM